Consider one substance from article PMC1260013 (BMC Biochemistry, 2005).

Data set [1] deals with NC(=O)c1ccc[n+]([C@@H]2O[C@H](COP(=O)(O)OP(=O)(O)OC[C@H]3O[C@@H](n4cnc5c(N)ncnc54)[C@H](OP(=O)(O)O)[C@@H]3O)[C@@H](O)[C@H]2O)c1. Kind of data set: purified protein. The settings on record: pH 7.5; 25.0 °C; varied: cofactor.
Data set [2] has as its system O=C(O)CC(C(=O)O)C(O)C(=O)O. The experiment in a line: purified protein. The following applies: pH 7.5; 25.0 °C.

Regarding “M. tb ICD-2 (Mycobacterium tuberculosis H37Rv)”, in data set [1], the Km was determined as 19.6 ± 6 µM and the Vmax turned out to be 374 μM NADPH/min. Further, in data set [2], the Michaelis-Menten constant (Km) was 20 ± 1 µM and the Vmax was found to be 371.3 μM NADPH/min.
